# Test results: US20130190345A1, “MATRINIC ACID/MATRINE DERIVATIVES AND PREPARATION METHODS AND USES THEREOF” (priority 2010, published 2013)
# System: HCV
# Experiment: Inhibition effects of compounds on HCV in Huh7.5 cultured cell after HCV infection
# Assay type: cell-based
# Protocol: 1×10^5/ml Huh7.5 cells (purchased from Vertex Pharmaceutical Co., USA) were inoculated in an amount of 0.1 ml on 96-well culture plate, placed in an incubator with 37° C., 5% CO2 content and saturation humidity, and cultured for 24 h, HCV virus in 45 IU/cell was used to infect Huh7.5, different drug solutions (DM122) formulated with culture medium were added, and cell control and HCV infection control were set. Cultivation was continuously performed in the incubator with 37° C., 5% CO2 content and saturation humidity for 72 h, kit for RNA extraction was used to extract intracellular RNA, one-step qRT-PCR was used to determine intracellular contents of HCV and GAPDH RNA, and the inhibition effects of drug on HCV infection was analyzed. […] In comparison with the virus control group, the inhibition effects on HCV infection upon action of different drugs were analyzed. […] This experiment was repeated for 3 times, * indicated […] in comparison with control, ** indicated p<0.01 in comparison with control.
row,Compound,"SI (selectivity index, CC50/EC50)"
1,"Cc1ccc(C(=O)N2CC3CCCN4CCCC(C34)C2CCCC(=O)O)cc1 [Compound L7, (5R)—N-(p-methylbenzoyl)matrinic acid]",>3.42
2,"COc1ccc(S(=O)(=O)N2CC3CCCN4CCCC(C34)C2CCCC(=O)O)cc1 (stereo not shown) [DM-103, N-(4-methoxybenzenesulfonyl) matrinic acid]",>7.37
3,"COc1ccc(CN2CC3CCCN4CCCC(C2CCCC(=O)O)C34)cc1 (stereo not shown) [DM-122, N-(4-methoxybenzyl) matrinic acid]",>3.96
4,"O=C(O)CCC[C@@H]1[C@H]2CCCN3CCC[C@@H](CN1Cc1ccc([N+](=O)[O-])cc1)[C@@H]23 [DM-123, N-(4-nitrobenzyl) matrinic acid]",4.36
5,"O=C(O)CCCC1C2CCCN3CCCC(CN1Cc1ccccc1Cl)C23 (stereo not shown) [DM-124, N-(2-chlorobenzyl) matrinic acid]",7.39
6,"O=C(O)CCCC1C2CCCN3CCCC(CN1Cc1cccc(Cl)c1)C23 (stereo not shown) [DM-125, N-(3-chlorobenzyl) matrinic acid]",>29.1
7,"O=C(O)CCCC1C2CCCN3CCCC(CN1Cc1ccc(Cl)cc1)C23 (stereo not shown) [DM-126, N-(4-chlorobenzyl) matrinic acid]",>47.4
8,"O=C(O)CCC[C@@H]1[C@H]2CCCN3CCC[C@@H](CN1Cc1ccc(Cl)c(Cl)c1)[C@@H]23 [DM-127, N-(3,4-dichlorobenzyl) matrinic acid]",3.76
9,"O=C(O)CCCC1C2CCCN3CCCC(CN1Cc1ccc(Br)cc1)C23 (stereo not shown) [DM-128, N-(4-bromobenzyl) matrinic acid]",10.36
10,"O=C(O)CCCC1C2CCCN3CCCC(CN1Cc1cccc(Cl)c1Cl)C23 (stereo not shown) [DM-129, N-(2,3-dichlorobenzyl) matrinic acid]",1.28
11,"Cc1ccc([N+](=O)[O-])cc1C(=O)N1C[C@@H]2CCCN3CCC[C@@H]([C@H]23)[C@H]1CCCC(=O)O [DM-131, N-(2-methyl-5-nitrobenzoyl) matrinic acid]",>11.2
12,"O=C(O)CCCC1C2CCCN3CCCC(CN1Cc1ccc(F)cc1)C23 (stereo not shown) [DM-132, N-(4-fluorobenzyl) matrinic acid]",17.09
13,"O=C(O)CCCC1C2CCCN3CCCC(CN1Cc1cccc(F)c1)C23 (stereo not shown) [DM-133, N-(3-fluorobenzyl) matrinic acid]",7.84
14,"N#Cc1ccc(CN2C[C@@H]3CCCN4CCC[C@@H]([C@H]34)[C@H]2CCCC(=O)O)cc1 [DM-134, N-(4-cyanobenzyl) matrinic acid]",>19.16
15,"O=C(O)CCC[C@@H]1[C@H]2CCCN3CCC[C@@H](CN1Cc1ccccc1F)[C@@H]23 [DM-135, N-(2-fluorobenzyl)matrinic acid]",20.8
16,"O=C(O)CCCC1C2CCCN3CCCC(CN1Cc1cccc([N+](=O)[O-])c1)C23 (stereo not shown) [DM-137, N-(3-nitrobenzyl) matrinic acid]",>38.2

row,Compound,"SI (selectivity index, CC50/EC50)"
1,"Cc1ccccc1CN1CC2CCCN3CCCC(C1CCCC(=O)O)C23 (stereo not shown) [DM-138, N-(2-methylbenzyl) matrinic acid]",5.07
2,"Cc1cccc(CN2CC3CCCN4CCCC(C2CCCC(=O)O)C34)c1 (stereo not shown) [DM-139, N-(3-methylbenzyl) matrinic acid]",8.97
3,"Cc1ccc(CN2CC3CCCN4CCCC(C2CCCC(=O)O)C34)cc1 (stereo not shown) [DM-140, N-(4-methylbenzyl) matrinic acid]",>53.5
4,"O=C(O)CCCC1C2CCCN3CCCC(CN1Cc1ccccn1)C23 (stereo not shown) [DM-143, N-(pyridin-2-yl) methyl matrinic acid]",30.06
5,"O=C(O)CCCC1C2CCCN3CCCC(CN1Cc1cccnc1)C23 (stereo not shown) [DM-144, N-(pyridin-3-yl) methyl matrinic acid]",>31.4
6,"O=C(O)CCCC1C2CCCN3CCCC(CN1Cc1ccncc1)C23 (stereo not shown) [DM-145, N-(pyridin-4-yl)methyl matrinic acid]",>8.5
7,"O=C(O)CCC[C@@H]1[C@H]2CCCN3CCC[C@@H](CN1Cc1cscn1)[C@@H]23 [DM-146, N-(thiazol-4-yl)methyl matrinic acid]",>15.6
8,"O=C(O)CCCC1C2CCCN3CCCC(CN1Cc1cccc4ccccc14)C23 (stereo not shown) [DM-148, N-(naphthyl-1-yl) methyl matrinic acid]",<1.6
9,"N#Cc1ccc(C(=O)N2CC3CCCN4CCCC(C34)C2CCCC(=O)O)cc1 (stereo not shown) [DM-152, N-(4-cyanobenzoyl) matrinic acid]",>7.96
10,"O=C(O)CCCC1C2CCCN3CCCC(CN1C(=O)c1ccc(F)cc1)C23 (stereo not shown) [DM-154, N-(4-fluorobenzoyl) matrinic acid]",3
11,"O=C(O)CCC[C@@H]1[C@H]2CCCN3CCC[C@@H](CN1C(=O)c1ccc(C(F)(F)F)cc1)[C@@H]23 [DM-155, N-(4-trifluoromethylbenzoyl) matrinic acid]",3
12,"O=C(O)CCC[C@@H]1[C@H]2CCCN3CCC[C@@H](CN1Cc1ccc(OC(F)(F)F)cc1)[C@@H]23 [DM-162, N-(4-trifluoromethoxybenzyl) matrinic acid]",12.67
13,"O=C(O)C=CCC1C2CCCN3CCCC(CN1S(=O)(=O)c1ccc(C(F)(F)F)cc1)C23 (stereo not shown) [SC-84a, N-(p-trifluoromethylbenzene sulfonyl) sophocarpinic acid]",70.3
14,"N#Cc1cccc(S(=O)(=O)N2CC3CCCN4CCCC(C34)C2CC=CC(=O)O)c1 (stereo not shown) [SC-89b, N-(m-cyanobenzenesulfonyl) sophocarpinic acid]",30.9
15,N-(4-ethenyl benzyl) matrinic acid [DM-136],39.2
